Test results published in PMC11808136, “Screening and identification of host signaling pathways for alleviating influenza-induced production of pro-inflammatory cytokines, IP-10, IL-8, and MCP-1, using a U937 cell-based influenza model” (Frontiers in Microbiology, 2025).
Like-named read-outs stand apart in the source and are kept apart here.

Experiments:
[1] = tested on: MCP-1 production in influenza virus-infected U937 cells (H1N1); format: cell-based
[2] = tested on: IP-10 production in influenza virus-infected U937 cells (H1N1); format: cell-based
[3] = tested on: IL-8 production in influenza virus-infected U937 cells (H1N1); format: cell-based, Human
[4] = tested on: IP-10 production in influenza virus-infected U937 cells (H7N8); format: cell-based, Human; details: H7N8; selectivity index CC50/EC50
[5] = tested on: IL-8 production in influenza virus-infected U937 cells (H7N8); format: cell-based, Human; details: H7N8; selectivity index CC50/EC50
[6] = tested on: MCP-1 production in influenza virus-infected U937 cells (H3N2); format: cell-based, Human; details: H3N2; selectivity index CC50/EC50
[7] = tested on: MCP-1 production in influenza virus-infected U937 cells (H7N8); format: cell-based, Human; details: H7N8; selectivity index CC50/EC50
[8] = tested on: IP-10 production in influenza virus-infected U937 cells (H3N2); format: cell-based, Human; details: H3N2; selectivity index CC50/EC50
[9] = secondary screen, Supplemental Table 1
[10] = secondary screen, Supplemental Table 1, ratio CC50 / EC50
[11] = H1N1, selectivity index CC50/EC50

Row | Compound | SI MCP-1 [1, 9] | SI IP-10 [2, 10] | SI IL-8 [3, 9] | further results
1 | N#CC[C@H](C1CCCC1)n1cc(-c2ncnc3[nH]ccc23)cn1 [Ruxolitinib (INCB018424), Ruxolitinib] |  |  |  | SI MCP-1 [1]: 3333; SI IP-10 ([2]; ratio CC50 / EC50): 1429; SI IL-8 [3]: 833
2 | O=C(Nc1cc(C(F)(F)F)cc(C(F)(F)F)c1)c1cc(Cl)ccc1O [IMD 0354] | 18 | 14 | 55 | 
3 | COc1cc(Nc2ncc(F)c(Nc3ccc4c(n3)NC(=O)C(C)(C)O4)n2)cc(OC)c1OC [R406 (free base)] | 88 | 143 | 36 | 
4 | Cc1ccc(C(=O)Nc2ccc(CN3CCN(C)CC3)c(C(F)(F)F)c2)cc1C#Cc1cnc2[nH]ncc2c1 [GZD824] | 960 | 960 | 960 | 
5 | CC(C)n1nc(-c2ccc3oc(N)nc3c2)c2c(N)ncnc21 [INK 128 (MLN0128)] | 148 | 49 | 148 | 
6 | CCOc1cc2ncc(C#N)c(Nc3ccc(F)c(Cl)c3)c2cc1NC(=O)/C=C/CN(C)C [Pelitinib (EKB-569), Pelitinib] |  |  |  | SI MCP-1 [1]: 85; SI IP-10 ([2]; ratio CC50 / EC50): 13; SI IL-8 [3]: 85
7 | CN1CCN(c2cccc(Nc3nc4c(-c5ccc(S(C)(=O)=O)cc5)cccn4n3)c2)CC1 [CEP-33779] | 44 | 48 | 29 | 
8 | C=CC(=O)N1CCC(Oc2cc3c(Nc4ccc(Cl)c(Cl)c4F)ncnc3cc2OC)CC1 [Poziotinib (HM781-36B), Poziotinib] | 37 | 42 | 71 | 
9 | O=C(Nc1cccc(Nc2ncc(Br)c(NCCc3cnc[nH]3)n2)c1)N1CCCC1 [BX-912] | 278 | 95 | 244 | 
10 | C[C@@H](Oc1ccc2[nH]nc(/C=C/c3cnn(CCO)c3)c2c1)c1c(Cl)cncc1Cl [LY2874455] | 680 | 680 | 680 | 
11 | Cc1c[nH]c2nc(Nc3ccc(N4CCN(C)CC4)c(F)c3)nc(-c3cccc(CC#N)c3)c12 [SGI-7079] | 770 | 770 | 770 | 
12 | CCN(CC)CCNC(=O)c1c(C)[nH]c(/C=C2\C(=O)Nc3ccc(F)cc32)c1C [Sunitinib Malate] | 71 | 38 | 497 | 
13 | C=CC(=O)Nc1cccc(Oc2nc(Nc3ccc(N4CCN(C)CC4)cc3)ncc2Cl)c1 [WZ3146] | 2800 | 21 | 1400 | 
14 | NC(=O)c1cnc2[nH]ccc2c1N[C@@H]1[C@@H]2CC3C[C@H]1C[C@@](O)(C3)C2 [Peficitinb (ASP015K, JNJ-54781532), Peficitinb] |  |  | 3470 | SI MCP-1 [1]: 3470; SI IP-10 ([2]; ratio CC50 / EC50): 1735
15 | NC(=O)Nc1sc(-c2ccc(F)cc2)cc1C(N)=O [TPCA-1] | 92 | 157 | 39 | 
16 | CCS(=O)(=O)N1CCN(c2ccc(Nc3ncc(C(N)=O)c(NC4CC4)n3)cc2)CC1 [Cerdulatinib (PRT062070, PRT2070), Cerdulatinib] | 175 | 70 | 700 | 
17 | COc1cc(Nc2ncc(F)c(Nc3ccc4c(n3)N(COP(=O)(O)O)C(=O)C(C)(C)O4)n2)cc(OC)c1OC [Fostamatinib (R788), Fostamatinib] | 235 | 80 | 118 | 
18 | N#CCNC(=O)c1ccc(-c2ccnc(Nc3ccc(N4CCOCC4)cc3)n2)cc1 [CYT387] | 180 | 11 | 18 | 

Row | Compound | SI MCP-1 [1, 9] | SI IP-10 [2, 10] | SI IL-8 [3, 9] | further results
19 | Cc1ccc(NC(=O)c2cccc(C(C)(C)C#N)c2)cc1Nc1ccc2ncn(C)c(=O)c2c1 [AZ 628] | 556 | 103 | 1000 | 
20 | S-Ruxolitinib [S-Ruxolitinib (INCB018424)] | 1667 | 1250 | 3333 | 
21 | Cn1c(=O)c(F)c(Nc2ccc(I)cc2F)c2c(=O)n(C[C@@H](O)CO)cnc21 [TAK-733] |  |  |  | SI MCP-1 [1]: 1125; SI IP-10 ([2]; ratio CC50 / EC50): 32; SI IL-8 [3]: 9000
22 | CNC(=O)c1cc(Oc2ccc(NC(=O)Nc3ccc(Cl)c(C(F)(F)F)c3)c(F)c2)ccn1 [Regorafenib (BAY 73-4506), Regorafenib] | 12 | 11 | 33 | 
23 | C=CC(=O)Nc1cccc(Nc2nc(Nc3ccc(Oc4ccnc(C(=O)NC)c4)cc3)ncc2F)c1 [CNX-774] | 97 | 11 | 1550 | 
24 | Cc1cc(Nc2nc(N[C@@H](C)c3ccc(F)cc3)c(C#N)cc2F)[nH]n1 [AZ 960] | 1200 | 600 | 1200 | 
25 | Cc1cc(Nc2cc(CN3CCOCC3)c3nc(C)c(Cc4ccc(Cl)cc4F)n3n2)n[nH]1 [LY2784544] | 5200 | 2600 | 5200 | 
26 | Cc1cc(Nc2ncc3c(n2)N(C)C(=O)N(c2cc(NC(=O)c4cccc(C(F)(F)F)c4)ccc2C)C3)n(C)n1 [SC1] |  |  | 20000 | SI MCP-1 [1]: 2500; SI IP-10 ([2]; ratio CC50 / EC50): 10000
27 | CNS(=O)(=O)C[C@H]1CC[C@H](N(C)c2ncnc3[nH]ccc23)CC1 [Oclacitinib] | 263 | 278 | 1000 | 
28 | CC#CC(=O)Nc1ccc2ncnc(Nc3cccc(Br)c3)c2c1 [CL-387785 (EKI-785)] | 11 | 17 | 17 | 
29 | O=C(c1ccc(Nc2nccc(-c3cc4ccccc4s3)n2)cc1)N1CCC(N2CCCC2)CC1 [IKK-16 (IKK Inhibitor VII)] | 1780 | 1780 | 1780 | 
30 | CC(C)(C)Cn1c(N)nc2ccc(-c3[nH]c(C(C)(C)C)nc3-c3ccc(F)cc3)nc21 [LY2228820] | 22 | 14 | 10000 | 
31 | O=C(Nc1ccc(-c2ccnc(Nc3ccc(N4CCOCC4)cc3)n2)cc1)C1CCCN1 (centres unmarked) [XL019] | 28 | 27 | 52 | 
32 | C=CC(=O)Nc1ccc(CN2C(=O)N(c3cc(OC)cc(OC)c3)Cc3cnc(Nc4ccc(N5CCN(C)CC5)cc4)nc32)cc1 [FIIN-2] | 119 | 52 | 555 | 
33 | Cc1ccc(NC(=O)c2ccc(CN3CC[C@H](N(C)C)C3)c(C(F)(F)F)c2)cc1Nc1nccc(-c2cncnc2)n1 [Bafetinib (INNO-406), Bafetinib] | 116 | 244 | 169 | 
34 | COc1cc(Nc2ncc(F)c(Nc3ccc4c(n3)N(COP(=O)([O-])[O-])C(=O)C(C)(C)O4)n2)cc(OC)c1OC.[Na+].[Na+] [R788 (Fostamatinib) Disodium] | 46 | 19 | 123 | 
35 | CC(C)(C)c1cc(C=C(C#N)C#N)cc(C(C)(C)C)c1O [Tyrphostin 9] | 103 | 92 | 207 | 
36 | Cc1nc(Nc2ncc(C(=O)Nc3c(C)cccc3Cl)s2)cc(N2CCN(CCO)CC2)n1 [Dasatinib] | 714 | 77 | 49 | SI MCP-1 [1, 11]: >526; SI IP-10 [4]: 7,143; SI IP-10 [2, 11]: >86; SI IL-8 [5]: 743; SI MCP-1 [6]: 5,501; SI MCP-1 [7]: 2,277; SI IP-10 [8]: 5,968; SI IL-8 [3, 11]: >53
